Compound potency records, mixed from different reports. Data source: NIAID ChemDB in PubChem.

Common to all: growth or infection tests; organism: Semliki Forest virus; cells: VERO; measure: EC50

ECn: concentration that inhibits the pathogen or its effect by n%. Neighbouring rows are from separate reports.

smiles | read by | result
Nc1ncnc2c1ccn2[C@@H]1O[C@H](CO)[C@@H](O)[C@H]1O | cytopathic effect | >0.1 µg/mL
C#Cc1c(C(N)=O)ncn1[C@@H]1O[C@H](CO)[C@@H](O)[C@H]1O | cytopathic effect | 2 µg/mL
Nc1ncnc2c1ncn2[C@H]1C[C@H](F)[C@@H](CO)O1 | plaque count | 10.3 µM
Nc1nc2c(nnn2C[C@H]2CC[C@@H](CO)C2)c(=O)[nH]1 | cytopathic effect | >200 µg/mL
Cc1cn([C@H]2C[C@@H](CO)[C@H](O)C2)c(=O)[nH]c1=O | cytopathic effect | >400 µg/mL
CCCC#Cc1c(C(N)=O)ncn1[C@@H]1O[C@H](CO)[C@@H](O)[C@H]1O | cytopathic effect | >400 µg/mL
C[C@H]1C[C@@H](n2cnc3c(N)ncnc32)[C@H](O)[C@@H]1O | cytopathic effect | >100 µg/mL
Nc1nccc2c1ncn2[C@@H]1C[C@H](CO)[C@@H](O)[C@H]1O | cytopathic effect | 8 µg/mL
Nc1nc2c(ncn2C[C@H]2CC[C@@H](CO)C2)c(=O)[nH]1 | cytopathic effect | >200 µg/mL
Cc1cn([C@@H]2C[C@H](CO)[C@@H](O)C2)c(=O)[nH]c1=O | cytopathic effect | >100 µg/mL
NC(=O)c1ncn([C@@H]2O[C@H](CO)[C@@H](O)[C@H]2O)n1 | cytopathic effect | >400 µg/mL
Nc1nccc2c1ncn2[C@@H]1C[C@H](CO)[C@@H](O)[C@H]1O | cytopathic effect | >400 µg/mL
Nc1ncnc2c1ncn2C[C@H](O)CO | cytopathic effect | >400 µg/mL
Nc1nccc2c1ncn2[C@@H]1C[C@H](CO)[C@@H](O)[C@H]1O | cytopathic effect | >100 µg/mL
Nc1ncnc2c1ncn2[C@@H]1C=C[C@@H](O)[C@H]1O | cytopathic effect | >400 µg/mL
Nc1nc(N)c2ncn(C[C@H]3CC[C@@H](CO)C3)c2n1 | cytopathic effect | >200 µg/mL
Cc1cn([C@@H]2CC[C@H](CO)C2)c(=O)[nH]c1=O | cytopathic effect | >400 µg/mL
NC(=O)c1ncn([C@@H]2O[C@H](CO)[C@@H](O)[C@H]2O)c1C#CCO | cytopathic effect | 10 µg/mL
Nc1nccc2c1ncn2[C@@H]1C=C[C@@H](O)[C@H]1O | cytopathic effect | >200 µg/mL
Nc1nc(Cl)c2nnn(C[C@H]3CC[C@@H](CO)C3)c2n1 | cytopathic effect | >200 µg/mL
Cc1cn([C@@H]2C[C@H](CO)[C@H](O)C2)c(=O)[nH]c1=O | cytopathic effect | >200 µg/mL

Again, the opening 2 rows:

smiles | read by | result
Nc1ncnc2c1ccn2[C@@H]1O[C@H](CO)[C@@H](O)[C@H]1O | cytopathic effect | >0.1 µg/mL
C#Cc1c(C(N)=O)ncn1[C@@H]1O[C@H](CO)[C@@H](O)[C@H]1O | cytopathic effect | 2 µg/mL